Measured values taken from article PMC8442610.
pKd: −log10 of the molar value.

Assays:
Biotin-SBP (human) = assay: BLI
Biotin-SBP-PEG4 (human) = assay: BLI

Substance: SARS-CoV-2 Spike RBD-His (from UniProt P0DTC2) (domain or fragment; other documents disagree on this pair)
- pKd (Biotin-SBP (human)): 5.36
- pKd (Biotin-SBP-PEG4 (human)): 5.54
